{"source": "patent US12018066", "about": "“Compositions for targeting SARS-CoV-2 spike protein receptor binding domain” (TRIAD NATIONAL SECURITY, dated 2024)", "biological_target": "SARS-CoV spike protein receptor binding domain (RBD1) (SARS-CoV, UniProt P59594 306-527)"}
{"binder": "H02 scFv (scFv) scFv: QSVVTQPPSVSAAPGQKVTISCSGSSSNIGNNYVSWYQQLPGTAPKLLIYRDTQRPSGVPDRFSGSKSGTSASLAISGLRSEDEADYYCATWDKSLSGPVFGGGTKVTVLSGGSTITSYNVYYTKLSSSGTQVQLQQSGPGLVKPSQTLSLTCAISGDSVSSNSAAWNWIRQSPSRGLEWLGRTYYRSKWYNDYAVSVKSRIIINPDTSKNQFSLQLNSVTPEDTAVYYCARQDNNPYYGLDVWGQGTTVTVSS", "values": [{"measurement": "binding result", "value": "no binding (tested: 20 nM)"}]}
{"binder": "F07 scFv (scFv) scFv: SYVLTQPPSVSVAPGQTARITCGGNNIGSKSVHWYQQKPGQAPVLVVYDDSDRPSGIPERFSGSNSGNTATLIISRVEAGDEADYYCQVWDSSSVHYVFGTGTKLTVLSGGSTITSYNVYYTKLSSSGTQVQLVQSGAEVKKPGSSVRVSCKVSGYTFTGYYMHWVRQAPGQGLEWMGIINPSGGSTSYAQKFQGRVTMTRDTSTSTVYMELSSLRSEDTAVYYCARVRVGASDAFDIWGQGTMVTVSS", "values": [{"measurement": "binding result", "value": "no binding (tested: 20 nM)"}]}
{"binder": "D07 scFv (scFv) scFv: SYELTQPPSVSVAPGETARMTCGGNNIGTKGVHWYQQKPGQAPVLVVYDDSDRPSGIPERFSGSNAGNTATLTISRVEAGDEADYYCQVWDSRSDQYVFGTRTKLTVLSGGSTITSYNVYYTKLSSSGAQVTLKESGPVLVKPTETLTLTCTVSGFSLSNARMGVSWIRQPPGKALEWLAHIFSNGEKSYSTSLKSRLTISKDTSKSQVVLTMTNMDPVDTATYYCARTLDYYDSSGYLVGGAFDIWGQGTMVTVSS", "values": [{"measurement": "binding result", "value": "no binding (tested: 20 nM)"}]}
{"binder": "H01 scFv (scFv, also called H1) scFv: QPGLTQPPSVSLAPGQTARITCGGNNIGSKSVHWYQQKPGQAPVLVVYDDSDRPSGIPERFSGSNAGNTATLTISRVEAGDEADYYCQVWDSRSDQYVFGTRTKLTVLSGGSTITSYNVYYTKLSSSGAQVTLKESGPVLVKPTETLTLTCTVSGFSLSNARMGVSWIRQPPGKALEWLAHIFSNGEKSYSTSLKSRLTISKDTSKSQVVLTMTNMDPVDTATYYCARTLDYYDSSGYLVGGAFDIWGQGTMVTVSS", "values": [{"measurement": "binding result", "value": "no binding (tested: 20 nM)"}]}
{"binder": "D10 scFv (scFv) scFv: QSVVTQPPSASGSPGQTVTISCSGNSANIGGNPVNWYQQLPGTAPKLLIYSNNQRPSGVPDRFSGSKSGISASLAISGLQSEDEADYYCAAWDDSLNGVIFGGGTKLTVLSGGSTITSYNVYYTKLSSSGTQVQLVQSGAEVKKPGESLKISCKGSGYSFTSYWIGWVRQMPGKGLEWMGIIYPGDSDTRYSPSFQGQVTISADKSISTAYLQWSSLKASDTAMYYCARRHSGSYSGAFDIWGQGTMVTVSS", "values": [{"measurement": "binding result", "value": "no binding (tested: 20 nM)"}]}
{"binder": "D11 scFv (scFv) scFv: SYELTQPPSVSVAPGQTARITCGGNNIGSKSVHWYQQKPGQAPVLVVYDDSDRPSGIPERFSGSNSGNTATLTISGTQAMDEADYYCQAWDSSTAYVFGSGTKLTVLSGGSTITSYNVYYTKLSSSGTQVQLEESGGGLVQPGGSLRLSCAASGFTFSNYAMSWVRQAPGKGLEWVSAISGSGGATFHADSVKGRFTISRDNSKNTLYLQMNSLRAEDTAVYYCARRVGYDSSGYYWSDAFDIWGQGTMVTVSS", "values": [{"measurement": "binding result", "value": "no binding (tested: 20 nM)"}]}
{"binder": "H03 scFv (scFv) scFv: SYELTQPPSVSVAPGQTARITCGGNNIGSKSVHWYQQKPGQAPVLVIYYDSDRPSGIPERFSGSNSGNTATLTISRVEAGDEADYYCQVWDSSSALYVFGTRTKVTVLSGGSTITSYNVYYTKLSSSGTQVQLVESGGGLVQPGRSLRLSCAASGFTFDDYAMHWVRQAPGKGLEWVSGISWNSGSIGYADSVKGRFTISRDNAKNSLYLQVNSLRAEDTAVYYCARELIVGTTSPQTDAFDIWGQGTMVTVSS", "values": [{"measurement": "binding result", "value": "no binding (tested: 20 nM)"}]}
{"binder": "R26 scFv (scFv) scFv: SYELTQPPSVSVAPGQTATITCGGKNIESKSVHWYQQKPGQAPVLVVSDDTDRASGIPERFSGSNSGGAATLTISRVEAGDEADYYCQVWDSPSDHYVFGPGTKLTVLSGGSTITSYNVYYTKLSSSGTQVQLVESGGGVVQPGRSLRLSCAASGFTFSSYAMHWVRQAPGKGLEWVAVISYDGSNKYYADSVKGRFTISRDKAKNTLYLQMNSLRGEDTAVYYCARELSYYDSSGYLRGDWYFDLWGRGTLVTVSS", "values": [{"measurement": "binding result", "value": "no binding (tested: 20 nM)"}]}
{"binder": "E01 scFv (scFv, also called E1) scFv: SYELTQPPSVSVAPGETARITCGGDNIGRRHVHWYQQKPGQAPVLVIYDDSDRPSGIPDRFSGSNSGNTATLTIGRVEAGDEADYYCQVWGSSNDPHVFGTGTKLTVLSGGSTITSNNVYYTKLSSSGTQVQLQQWGAGLLKPSETLSLKCAVYGGSFSGYYWGWIRQSTGKGLEWIGEINRSGSTNYNPSLKSRVTISVDTSKNQFSLKLSSVTAADTAVYYCARGGARYYYGSGSYRSTPRPYYFDYWGQGTLVTVSS", "values": [{"measurement": "binding result", "value": "no binding (tested: 20 nM)"}]}
{"binder": "H05 scFv (scFv, also called H5) scFv: SYVLTQPPSVSVAPGQTARITCGANNIGRISVHWYQQKPGQAPVLVVYDDSDRPSGIPERFSGSNFGNTATLTISRVEAGDEADYYCQVWDSYSDHVIFGGGTKLTVLSGGSTITSYNVYYTKLSSSGTQVQLVQSGAEVKKPGSSVKVSCKASGGTFSSYAISWVRQAPGQGLEWMGGIIPIFGTANYAQKFQGRVTITADESTSTAYMELSSLRSEDTAVYYCARSIFGVVIISHADGYYYGMDVWGQGTTVTVSS", "values": [{"measurement": "binding result", "value": "no binding (tested: 20 nM)"}]}
{"binder": "B10 scFv (scFv) scFv: QSVVTQPPSVSGAPGQRVTISCTGSSSNIGSRTVNWYQQLPGTAPKLLIYANNQRPSGVPDRFSGSKSGTSASLAISGLQSEDEADYYCAAWDDSLNGYVFGTGTKLTVLSGGSTITSYNVYYTKLSSSGTQVQLQQSGPGLVKPSQTLSLTCAISGDSVSSNSATWNWIRQSPSRGLEWLGRTYYGSKWHSDYAVSVKSRITINPDTSKNQISLHLNPVTPEDTAVYYCARGRSYAFDIWDQGTMVTVSS", "values": [{"measurement": "binding result", "value": "no binding (tested: 20 nM)"}]}
{"binder": "D04 scFv (scFv) scFv: SYVLTQPPSVSVAPGKTARITCGGNNIGWKSVHWYQQKPGQAPVLVVYNDNDRPSGVPERFSGSNSGNTATLTISRVVAGDEADYYCQVWDSSSDHVLFGGGTKLTVLSGGSTITSYNVYYTKLSSSGTQVQLVQSGAEVKKPGSSVKVSCKASGGTFSSYAISWVRQAPGQGLEWMGGIIPIFGTANYAQKFQGRVTITADESTSTAYMELSSLRSEDTAVYYCARASGRWLQFWHYYGMDVWGQGTTVTVS", "values": [{"measurement": "binding result", "value": "no binding (tested: 20 nM)"}]}
{"binder": "G07 scFv (scFv) scFv: QSVLIQPPSASGTPGQRVTISCSGSNSNFGSNSVSWYQQRPGTAPKLLIEGNNQRPSGVPERFSGSKSGTSASLAISGLQSEDEAEYSCASWDDSLNAFVFGPGTKLTVLSGGSAITSYNVYYTKLSSSGTQVQLVQSGAEVKKPGESLKISCKGSGYSFTSYWIGWVRQMPGKGLEWMGIIYPGDSDIRYSPSFQGQVTISADKSFSSAYLQWSSLKASDTAMYYCARLGATGAFDIWGQGTTVTVSS", "values": [{"measurement": "binding result", "value": "no binding (tested: 20 nM)"}]}
{"binder": "B04 scFv (scFv) scFv: SYVLTQPPSVSVAPGKTARITCGGNNIGIRSVHWYQQKPGQAPVLVIYYDSDRPSGIPERFSGSKSGNTATLTISRVEAGDEADYYCQVWDSSSDHPVFGGGTKLTVLSGGSTITSYNVYYTKLSSSGTQVQLVESGAEVKKPGASVKVSCKASGYTFTRYYMHWVRQAPGQGLEWMGIINPSGGTTSYAQKFQGRVTMTRDTSTSTVYMELSSLRSEDTAVYYCARSFGELTSFDYWGQGTLVTVSS", "values": [{"measurement": "binding result", "value": "no binding (tested: 20 nM)"}]}
